Measured values from several laboratories, pooled; numbers as filed in NIAID ChemDB.

All rows: enzyme or target tests; agent: HIV-1; target: Integrase; method: strand transfer; read-out: IC50

ICn: concentration for n% inhibition. An empty or dashed field is not shown. Two numbers with a dash give a range or band. Lines come from different laboratories, so protocols vary.

smiles | strain | value
CC1CCC(C2=NCCc3ccc([C@@H]4CC4c4ccc5cc(C(=N)N)ccc5c4)cc32)CC1 |  | 19 µM
O=C1C=CC(=O)c2ccccc21 |  | >100 µM
CCOP(=O)(CCNC(=O)c1c(O)c2ncc(Cc3ccc(F)cc3)cc2n(CC(=O)N(C)C)c1=O)OCC |  | <0.1 µM
COc1ccc(/C(O)=C/C(=O)C(=O)O)cc1OC |  | 29.9 µM
N=C(CC(=O)c1cn(Cc2ccc(F)cc2)cc1-c1ccccc1)C(=O)O |  | 0.044 µM
CC(=O)Oc1ccc(/C=C/C(=O)O[C@H](C(=O)O)[C@H](OC(=O)/C=C/c2ccc(OC(C)=O)c(OC(C)=O)c2)C(=O)O)cc1OC(C)=O | IIIB | >78 µM
CCN(CC)CCCC(C)Nc1ccnc2cc(Cl)ccc12 |  | 5.14 µM
CN1CCc2ccc([C@@H]3CC3c3ccc4cc(C(=N)N)ccc4c3)cc2C1C1CCCCCC1 |  | 54 µM
O=C1/C(=C/c2ccc(O)c([N+](=O)[O-])c2)CN(Cc2ccccc2)C/C1=C\c1ccc(O)c([N+](=O)[O-])c1 |  | >100 µM
Nc1ccn(C2CC(OP(=O)(O)OCC3OC(n4cnc5c(N)ncnc54)CC3OP(=O)(O)OCC3OC(n4cnc5c(=O)[nH]c(N)nc54)CC3O)C(CO)O2)c(=O)n1 |  | 53 µM
CCN1C/C(=C\c2ccc(O)c(O)c2)C(=O)/C(=C/c2ccc(O)c(O)c2)C1 |  | 1.1 µM
O=C(NO)c1ccc(O)c(O)c1 |  | 176–182.2 µM
CN1C(=O)C(=O)/C(=C(\O)c2ccccn2)C1c1cccc(Cl)c1 |  | >100 µM
CCOP(=O)(CCNC(=O)c1c(O)c2ncc(Cc3ccc(F)cc3)cc2n(C)c1=O)NCCOC |  | <0.1 µM
CC(C)=C/C=C\[C@H](C)[C@H]1CC[C@]2(C)C[C@H]3[C@@H](C(=O)C[C@@]3(C)O)C(C=O)=C[C@@H]12 |  | >120 µM
C=CCN1CCc2ccc([C@@H]3CC3c3ccc4cc(C(=N)N)ccc4c3)cc2C1C(C)C |  | 2.4 µM
O=C(O)C(=O)/C=C(\O)c1ccccc1O |  | >100 µM
N=C(N)c1ccc2cc(C3C[C@H]3c3ccccc3)ccc2c1 |  | 92 µM
O=C(O)C(=O)/C=C(\O)c1ccc(O)c(O)c1 |  | 1.1 µM
COc1cc(C)cc2c1C(=O)c1c(cc(O)c(O)c1O)C2=O |  | 23 µM
Nc1nc2c(ncn2C2CC(OP(=O)(O)OCC3OC(n4cnc5c(N)ncnc54)CC3O)C(COP(=O)(O)O)O2)c(=O)[nH]1 |  | 100 µM
CCOP(=O)(CCCNC(=O)c1c(O)c2ncc(Cc3ccc(F)cc3)cc2n(C)c1=O)OCC |  | <0.1 µM
Nc1ccn(C2C[C@H](O)[C@@H](COP(=O)(O)O[C@H]3[C@H](n4cnc5c(N)ncnc54)CO[C@@H]3COP(=O)(O)O)O2)c(=O)n1 |  | 25 µM
O=C1/C(=C/c2ccc([N+](=O)[O-])c(O)c2)CN(Cc2ccccc2)C/C1=C\c1ccc([N+](=O)[O-])c(O)c1 |  | >100 µM
CCOP(=O)(CCCCNC(=O)c1c(O)c2ncc(Cc3ccc(F)cc3)cc2n(C)c1=O)OCC |  | <0.1 µM
O=C1O/C(=C(/C(=O)O)c2ccc(O)cc2)C(O)=C1c1ccc(O)c(O)c1 |  | 4.4 µM
CC(=O)Oc1ccc(/C=C/C(=O)O[C@@H](C(=O)O)[C@@H](OC(=O)/C=C/c2ccc(OC(C)=O)c(OC(C)=O)c2)C(=O)O)cc1OC(C)=O |  | <5 µM
CC(C)=CCC[C@H](C)[C@H]1CC[C@]2(C)C[C@H]3[C@H](C(=O)C[C@@]3(C)O)C(C=O)=C[C@@H]12 |  | 33 µM
O=C1C=CC(=O)c2c(O)cccc21 |  | >100 µM
C/C=C/C=C/[C@H]1C(C)=CC2C[C@@H](C)CC[C@@H]2[C@@]1(C)/C(O)=C1/C(=O)[C@@H](CO)N(C)C1=O |  | 15–20 µM
CCOP(=O)(O)CNC(=O)c1c(O)c2ncc(Cc3ccc(F)cc3)cc2n(C)c1=O |  | <0.1 µM
O=C(O)C(=O)/C=C(\O)c1ccccc1 |  | >100 µM
CCOP(=O)(CNC(=O)c1c(O)c2ncc(Cc3ccc(F)cc3)cc2n(CC(=O)N(C)C)c1=O)OCC |  | <0.1 µM
O=C1Cc2ccccc2C(=O)N1O |  | 7.91 µM
CC[C@@]1(O)C(=O)OCc2c1cc1n(c2=O)Cc2cc3cc4c(cc3nc2-1)OCO4 |  | >100 µM
O=C(O)C(=O)/C=C(\O)c1ccc2cc(O)c(O)cc2c1 |  | >0.9 µM
Cc1cn(C2CC(O)C(COP(=O)(O)OC3CC(n4cc(C)c(=O)[nH]c4=O)OC3COP(=O)(O)O)O2)c(=O)[nH]c1=O |  | 53 µM
Cc1cc(O)c2c(c1)C(=O)C1(C)C(=C2O)C(=O)[C@H]2[C@H](O)[C@H]3[C@@H](O)[C@@H]1C(=O)C1=C(O)c4c(O)cc(C)cc4C(=O)C132 |  | 25 µM
O=C1Sc2cc3ccccc3cc2C(=O)N2CSCC12 |  | 100 µM
COc1cccc2c1C(=O)c1c(O)c3c(c(O)c1C2=O)C[C@@](O)(C(=O)CO)C[C@@H]3O[C@H]1C[C@H](O)[C@H](O)[C@H](C)O1 |  | 11.3 µM
[N-]=[N+]=NCc1cc(CN=[N+]=[N-])cc(C(=O)CC(=O)C(=O)O)c1 |  | 0.46 µM
CC(O)C(NC(=O)C(Cc1ccc(O)cc1)NC(=O)OCc1ccccc1)C(=O)O |  | 5.3–12.3 µM
C/C=C/[C@@H]1C=C[C@@H]2C[C@H](C)CC[C@H]2[C@]1(C)/C(O)=C1/C(=O)[C@@H](CO)N(C)C1=O |  | 15–20 µM
NCCCCNCCCN |  | >100 µM
N=C(N)c1ccc2cc(C#Cc3ccccc3O)ccc2c1 |  | 300 µM
Cc1cn(C2CC(OP(=O)(O)OCC3OC(n4cnc5c(N)ncnc54)CC3O)C(COP(=O)(O)OC3CC(n4ccc(N)nc4=O)OC3CO)O2)c(=O)[nH]c1=O |  | 25 µM
COc1cc(-c2ccc(O)cc2)c(OC)c(O)c1-c1ccc(O)c(O)c1 |  | 12.1 µM
Nc1ccn(C2CC(OP(=O)(O)OCC3OC(n4cnc5c(=O)[nH]c(N)nc54)CC3O)C(COP(=O)(O)O)O2)c(=O)n1 |  | 12.4 µM
C/C=C/[C@@H]1C=C[C@@H]2C[C@H](C)CC[C@H]2[C@]1(C)/C(O)=C1/C(=O)[C@H](CO)N(C)C1=O |  | 7 µM
COc1cc(C)c2c(c1C=O)Oc1c(c(C)c(O)c3c1C(O)OC3=O)OC2=O |  | 28.1–39.2 µM
O=C1/C(=C\c2cc(O)c(O)c(O)c2)Cc2ccccc21 |  | 0.7 µM
CCOC(=O)c1cnc(NCCCCCCNc2ncc(C(=O)OCC)c(=O)[nH]2)[nH]c1=O |  | 7.9–16.7 µM
COc1cc(O)c(C(=O)O)c(-c2cc(O)c(O)cc2C)c1 |  | 25 µM
NCCCNCCCCNCCCN |  | >100 µM

Repeating the final 3 entries:

| smiles | strain | value |
|---|---|---|
| CCOC(=O)c1cnc(NCCCCCCNc2ncc(C(=O)OCC)c(=O)[nH]2)[nH]c1=O |  | 7.9–16.7 µM |
| COc1cc(O)c(C(=O)O)c(-c2cc(O)c(O)cc2C)c1 |  | 25 µM |
| NCCCNCCCCNCCCN |  | >100 µM |